One test relates to hTOM70 mutant E477A. The experiment in a line: ITC, hTOM70 mutant E477A. On the technique in general: In ITC the heat of successive injections is recorded.
In the next test the test system is hTOM70 mutant E549A. The experiment in a line: ITC, hTOM70 mutant E549A.
A further test concerns hTOM70 mutant D545A. The experiment in a line: ITC, hTOM70 mutant D545A.

Data on one molecule can be found in publication PMC8121815 (Nature Communications, 2021).

Take `CC[C@H](C)[C@H](N)C(=O)N[C@H](C(=O)N[C@@H](CC(C)C)C(=O)N[C@@H](CCCNC(=N)N)C(=O)N[C@@H](CC(C)C)C(=O)NCC(=O)N[C@@H](CO)C(=O)N1CCC[C@H]1C(=O)N[C@@H](CC(C)C)C(=O)N[C@@H](CO)C(=O)N[C@@H](CC(C)C)C(=O)N[C@@H](CC(N)=O)C(=O)N[C@@H](CCSC)C(=O)N[C@@H](C)C(=O)N[C@@H](CCCNC(=N)N)C(=O)N[C@@H](CCCCN)C(=O)N[C@H](C(=O)N[C@@H](CC(C)C)C(=O)N[C@@H](CC(N)=O)C(=O)N[C@@H](CO)C(=O)N[C@@H](CC(C)C)C(=O)N[C@@H](CCC(=O)O)C(=O)N[C@@H](CC(=O)O)C(=O)N[C@@H](CCCCN)C(=O)N[C@@H](C)C(=O)N[C@@H](Cc1ccccc1)C(=O)N[C@@H](CCC(N)=O)C(=O)O)[C@@H](C)O)[C@@H](C)CC` [C-peptide]: the “thermodynamic nature of binding” value in the test with hTOM70 mutant E477A, with hTOM70 mutant E549A and in the test on hTOM70 mutant D545A was “endothermic” in each case. For the same molecule, the “decrease in affinity compared with the wild-type protein” value in the test with hTOM70 mutant E477A (25 °C, pH = 8.0) was ~ 267 folds; with hTOM70 mutant D545A (25 °C, pH = 8.0), ~ 52 folds. Further, the “impact of mutation on binding” value with hTOM70 mutant E549A is “only had a moderate impact on binding”.
